We go through five compounds from ChEMBL document CHEMBL1125873 (J Med Chem, 1991).

The nature of series [1]: Half-life value of the compound. The format is ADME.
Series [2] can be described thus: Loss of first equivalent halide ion using Chloride ion electrode experiments. The format is ADME.

In series [1], `NP(=O)(O)N(CCCl)CCCl` showed a T1/2 of 17 min. Besides, the k x10e3 in series [2] is 41 min⁻¹.
The like results for `CN(CCBr)P(=O)(O)OCC1CCCC1` were, in that order, 5.3 min and 131 min⁻¹.
In turn, `O=P(O)(OCC1CCCC1)N(CCBr)CCBr` came in with a T1/2 in series [1] of 12 min. For the same compound, the k x10e3 in series [2] was found to be 58 min⁻¹.
As to `O=P(O)(OCC1CCCC1)N(CCCl)CCCl`, the T1/2 in series [1] is 230 min. The k x10e3 in series [2] was 3 min⁻¹.
Regarding `CN(CCCl)P(=O)(O)OCC1CCCC1`, the T1/2 in series [1] turned out to be 54 min. Also, in series [2], the k x10e3 is 13 min⁻¹.
